Columns and labels:
Format in all cases: cell-based
Details in all cases: ratio CC50 / IC50
[1] = system: SARS-CoV-2 Delta lineage B.1.617.2, hCoV-19/Russia/PSK-2804/2021
[2] = system: SARS-CoV-2 Wuhan lineage B, hCoV-19/Australia/VIC01/2020 (EPI_ISL_406844)
[3] = system: SARS-CoV-2 Omicron lineage B.1.1.529, hCoV-19/Russia/Moscow171619-031221/2021

| Compound | SI [1] | SI [2] | SI [3] |
| --- | --- | --- | --- |
| CC(=O)C1=C(O)C=C2Oc3c(C(C)=O)c(O)c(C)c(O)c3[C@@]2(C)C1=O [Compound 1, (R)-(+)-Usnic acid] | 7 | 13 | 39 |
| CCC1=C(O)C[C@H]2Oc3c(C(C)=O)c(O)c(C)c(O)c3[C@@]2(C)C1=O [Compound 12, (2R,7R)-10-acetyl-4-ethyl-5,11,13-trihydroxy-2,12-dimethyl-8-oxatricyclo[7.4.0.0^2,7]trideca-1(13),4,9,11-tetraen-3-one] | 3 | 3 | 4 |
| CC(=O)c1c(O)c(C)c(O)c2c1O[C@@H]1CC/C(=C(/C)O)C(=O)[C@]21C [Compound 13, (2R,4E,7R)-10-acetyl-11,13-dihydroxy-4-(1-hydroxyethylidene)-2,12-dimethyl-8-oxatricyclo [7.4.0.0^2,7] trideca-1(13),9,11-trien-3-one] | 5 | 10 | 10 |
| CC(=O)C1=C(O)C[C@H]2Oc3c(C(C)=O)c(O)c(C)c(O)c3[C@@]2(C)C1=O [Compound 11, (2R,7R)-4,10-diacetyl-5,11,13-trihydroxy-2,12-dimethyl-8-oxatricyclo [7.4.0.0^2,7]trideca-1(9),4,10,12-tetraen-3-one] | – | 4 | – |
| CC(=O)c1c(O)c(C)c(O)c2c1OC1=CC(=O)c3c(C)noc3[C@@]12C [Compound 3] | 1.7 | 1.6 | 4.5 |
| CC(=O)C1=C(O)C=C2Oc3c4c(c(C)c(O)c3[C@@]2(C)C1=O)OCC4=O [Compound 8] | 2 | 4 | 4 |
| CC(=O)C1=C(O)C=C2Oc3c(C(=O)CO)c(O)c(C)c(O)c3[C@@]2(C)C1=O [Compound 10, (2R)-4-acetyl-5,11,13-trihydroxy-10-(2-hydroxyacetyl)-2,12-dimethyl-8-oxatricyclo[7.4.0.0^2,7]trideca-1(9),4,6,10,12-pentaen-3-one] | 31 | 12 | 17 |
| CC(=O)C1=C(O)C=C2Oc3c(C(=O)CSC(C)C(=O)O)c(O)c(C)c(O)c3[C@@]2(C)C1=O (mixture of isomers) [Compound 5b, (2S)-2-({2-[(1R)-12-acetyl-3,5,11-trihydroxy-1,4-dimethyl-13-oxo-8-oxatricyclo[7.4.0.0^2,7]trideca-2(7),3,5,9,11-pentaen-6-yl]-2-oxoethyl}sulfanyl)propanoic acid and (2R)-2-({2-[(1R)-12-acetyl-3,5,11-trihydroxy-1,4-dimethyl-13-oxo-8-oxatricyclo [7.4.0.0^2,7]trideca-2(7),3,5,9,11-pentaen-6-yl]-2-oxoethyl}sulfanyl)propanoic acid (1:1)] | – | 2 | – |
| CCC(CC)COC(=O)[C@H](C)N[P@](=O)(OC[C@H]1O[C@@](C#N)(c2ccc3c(N)ncnn23)[C@H](O)[C@@H]1O)Oc1ccccc1 [Remdesivir, reference compound] | 338 | 186 | 356 |
